From article PMC3531487, “An Allele of an Ancestral Transcription Factor Dependent on a Horizontally Acquired Gene Product” (PLoS Genetics, 2012)

Target: T1, PmrA (G211)-P (Salmonella enterica serovar Typhimurium) (UniProt P36556)
T1 sequence (looked up): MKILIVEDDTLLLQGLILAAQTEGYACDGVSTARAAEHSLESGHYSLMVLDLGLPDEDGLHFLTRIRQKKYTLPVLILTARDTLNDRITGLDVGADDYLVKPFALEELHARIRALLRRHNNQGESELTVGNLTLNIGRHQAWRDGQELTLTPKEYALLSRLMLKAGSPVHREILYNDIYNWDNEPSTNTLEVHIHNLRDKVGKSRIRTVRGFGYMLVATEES
Assay: EMSA
Settings: phosphorylated PmrA, 0-300 pmol in 30 ul, 2 mM MgCl2, poly(dI-dC); recombinant protein; residues 1-222; protein details: C-terminal His6; label: 32P 5' end (T4 PNK), unlabeled as cold competitor; probe letters rebuilt from the primers and the genome

TCGCCGGACGGGAGAAAGGCAAAAAGTCCGACATCATTTTTCCTTCAGCCATTGAAAGCCGCTTTTCAAATATTTCGGCAATAGAAAAGGGCTTATTTTTTAACGCATTTAGCTGAACCCTACTGGATGAAGATTAAATTAACATTAAGAAATTAAGGTGAAGTAAAAAGATAATTTTTAACGGAATTATGCTTTGCTTTCGCCGAAAGTTTAAGGCATTTTATGCATGCCCAAAAGCTGTTTTTATGTTTCTGGCCTGGTCTTCCGTTGCGGAATTTCATTTTAATTGTATTGCTATTAAGTTAGCTGCACTGTCTGCCTGAGAGGTTAATG (double strand) [pbgP promoter fragment]
binding result: binds

Where a protein sequence is shown, tags need not be part of it.
